The series is classed as binding. As to conditions: ITC, STX, 25° C.

B1: NpSxph: Nanorana parkeri (High Himalaya frog) saxiphilin, SEQ ID NO: 2 (protein, listed as Nanorana parkeri)
chain: MALTFHTALYFTIVGLSFAASDARHVQWCTISHLEQKKCNDLVGSCNVPDITLACVYRSSTENCMAAIKDGQADAMFLDSGDVYKASLDHYNLKPIIAEPYSLHRELTKCLKHRQESLGGDKMVKGRYIPQCDEKGNYHPVQCHASTGYCWCVNANGEKIEGTNTTPVQTPPTCPSQVLTKCLKERQEALGGKRIAIGRYIPQCDEQGNYRPMQCHGSTGYCWCVNAIGEKIEGTNTPPGNTQPTCQSHDWDTCHYAVAVVKNSSTFQFGQLKGKRSCHSGLSKTDGWNAPVNVFVEKKLLPWDGLAKGSIERAVSKFFSASCIPGATETNLCKQCIGEEEKKCKSSHDEPYYGDHGAFRCLQEDKGDVAFLKNTALPDEHSGVYELLCPDNTRKPLNKYKECNLGKVPADAVVTRKAGDKTKDINDFLLEAQKKKCKLFGSPHGKDLMFDDSTTHLAPLPSEIDAFFFLGVKWYNAMKALTEDVKLPSKNKVRWCTINKPEMMKCKDWAAVSGGAIACTEASCPEHCVKQILKGEADAVTLDVQYMYMALMCGLLPAVEEYPNKDDFHPCQIPGSTIKDFGTKRAVALVKKSNKDIKWNNLKGKKSCHTHVGDIPGWVIPAGLISNQNDNIDIESFFGESCAPGSDTNSKLCKLCIGDPENPKASTRCSLSDKEAYYGNEGAFRCLVEKGDVAFVPHTVVFANTDGKNPAEWAKDLKSEDFEILCLDGSRAPVTNYRGCNLSGLPPRAIVTREESVSDVVRILINQQSLYGRNGFEKDMFQMFSSAKGQNLLFNDETQCLIEFDRQPKDIMEDYFGVRYYTAVYSASRSAVPSELIPACTFKHC
Turning to B1, the “N (sites)” value amounted to 0.92 ± 0.02 sites.

B2: RcSxph: Rana (Lithobates) catesbeianus (American bullfrog) saxiphilin, SEQ ID NO: 1 (protein)
chain: MAPTFQTALFFTIISLSFAAPNAKQVRWCAISDLEQKKCNDLVGSCNVPDITLVCVLRSSTEDCMTAIKDGQADAMFLDSGEVYEASKDPYNLKPIIAEPYSSNRDLQKCLKERQQALAKKMIGHYIPQCDEKGNYQPQQCHGSTGHCWCVNAMGEKISGTNTPPGQTRATCERHELPKCLKERQVALGGDEKVLGRFVPQCDEKGNYEPQQFHGSTGYSWCVNAIGEEIAGTKTPPGKIPATCQKHDLVTTCHYAVAMVKKSSAFQFNQLKGKRSCHSGVSKTDGWKALVTVLVEKKLLSWDGPAKESIQRAMSKFFSVSCIPGATQTNLCKQCKGEEGKNCKNSHDEPYYGNYGAFRCLKEDMGDVAFLRSTALSDEHSEVYELLCPDNTRKPLNKYKECNLGTVPAGTVVTRKISDKTEDINNFLMEAQKRQCKLFSSAHGKDLMFDDSTLQLALLSSEVDAFLYLGVKLFHAMKALTGDAHLPSKNKVRWCTINKLEKMKCDDWSAVSGGAIACTEASCPKGCVKQILKGEADAVKLEVQYMYEALMCGLLPAVEEYHNKDDFGPCKTPGSPYTDFGTLRAVALVKKSNKDINWNNIKGKKSCHTGVGDIAGWVIPVSLIRRQNDNSDIDSFFGESCAPGSDTKSNLCKLCIGDPKNSAANTKCSLSDKEAYYGNQGAFRCLVEKGDVAFVPHTVVFENTDGKNPAVWAKNLKSEDFELLCLDGSRAPVSNYKSCKLSGIPPPAIVTREESISDVVRIVANQQSLYGRKGFEKDMFQLFSSNKGNNLLFNDNTQCLITFDRQPKDIMEDYFGKPYYTTVYGASRSAMSSELISACTIKHC
Consider B2, for which the “N (sites)” value is on record as 1.02 ± 0.01 sites.

For the origin of these results see US20260034194A1, “PHARMACEUTICAL COMPOSITIONS AND METHODS OF TREATING PSP” (priority 2022, published 2026).
